{
  "source": "patent US20040096356A1",
  "about": "“Assay device for determining analytes in a liquid dairy product” (priority 1997, published 2004)",
  "origin": "cited, not measured here",
  "data": [
    {"system": "protein isolated from an antibiotic-sensitive microorganism, such as Bacillus stearothermophilus", "settings": "milk; according to Example 1 of EP 593 112; cited from earlier work", "units": {"concentration down to which the test detects the antibiotic": "ppb"}, "values": [
      {"smiles": "CO/N=C(\\C(=O)N[C@@H]1C(=O)N2C(C(=O)O)=C(CSC(=O)c3ccco3)CS[C@H]12)c1csc(N)n1", "note": "[Ceftiofur, ceftiofur]", "concentration down to which the test detects the antibiotic": 5},
      {"smiles": "CC1(C)S[C@@H]2[C@H](NC(=O)[C@H](N)c3ccccc3)C(=O)N2[C@H]1C(=O)O", "note": "[ampicillin]", "concentration down to which the test detects the antibiotic": 10},
      {"smiles": "CC1(C)S[C@@H]2[C@H](NC(=O)Cc3ccccc3)C(=O)N2[C@H]1C(=O)O", "note": "[Penicillin G, penicillin G]", "concentration down to which the test detects the antibiotic": "~5"},
      {"smiles": "CC1(C)S[C@@H]2[C@H](NC(=O)[C@H](N)c3ccc(O)cc3)C(=O)N2[C@H]1C(=O)O", "note": "[amoxicillin]", "concentration down to which the test detects the antibiotic": 5}
    ]}
  ]
}
